Measured values from several laboratories, pooled; numbers as filed in NIAID ChemDB.

All rows: enzyme or target tests; organism: HIV-1; protein: Protease; measure: IC50

Conditions beyond the fields shown may differ between rows. Blank or dashed fields: not listed here. ICn: concentration for n% inhibition.

| compound | read by | result |
|---|---|---|
| CC(C)c1nc(CN(C)C(=O)N[C@H](C(=O)N[C@@H](Cc2ccccc2)[C@H](O)CN2CCN(Cc3ccccc3)C[C@H]2C(=O)NC(C)(C)C)C(C)C)cs1 | substrate cleavage | <0.0005 µM |
| C[C@@H](O)[C@H](NC(=O)CCCCCCCCCCCCCCC(=O)N[C@@H](CC(N)=O)C(=O)N[C@@H](Cc1ccccc1)C(=O)O)C(=O)N[C@H](C(=O)N[C@@H](Cc1ccccc1)C(N)=O)C1CCCCC1 |  | 0.68 µM |
| CC(C)(C)NC(=O)[C@@H]1CCCN1C(=O)[C@@H](O)[C@H](Cc1ccccc1)NC(=O)[C@H](CC(N)=O)NC(=O)OCc1ccccc1 |  | <5 µM |
| CC1(C)CC[C@]2(C(=O)O)CC[C@]3(C)C(=CCC4[C@@]5(C)CC[C@H](OC(=O)CC(=O)O)C(C)(C)C5CC[C@]43C)C2C1 | HPLC | 8 µM |
| CC(C)C[C@H](NC(=O)[C@@H](NC(=O)[C@H](Cc1c[nH]c2ccccc12)NC(=O)C(F)(F)F)C(C)C)[C@@H](O)CC(=O)N[C@H](C(=O)N[C@H](C(=O)OCc1ccccc1)C(C)C)C(C)C | fluorescence | 0.03 µM |
| CCc1nc(COC(=O)N[C@H](C(=O)N[C@@H](Cc2ccccc2)[C@H](O)CN2CCN(Cc3ccc(OC)c(OC)c3)C[C@H]2C(=O)NC(C)(C)C)C(C)C)cs1 | substrate cleavage | <0.0005 µM |
| CSCC[C@H](NC(=O)[C@H](CC(N)=O)NC(=O)CCCCCCCCCCCCCCC(=O)N[C@H](C(=O)N[C@@H](CC(C)C)C(=O)N[C@@H](Cc1ccccc1)C(N)=O)C(C)O)C(=O)O |  | >5.5 µM |
| CC(C)c1nc(COC(=O)N[C@H](C(=O)N[C@@H](Cc2ccccc2)[C@H](O)CN2CCN(Cc3ccc(F)cc3)C[C@H]2C(=O)NC(C)(C)C)C(C)C)cs1 | substrate cleavage | <0.0005 µM |
| CC(C)C[C@H](NC(=O)[C@H](CC(N)=O)NC(=O)CCCCCCCCCCCCCCC(=O)N[C@H](C(=O)N[C@@H](CC(C)C)C(=O)N[C@@H](Cc1ccccc1)C(N)=O)C(C)O)C(=O)O |  | 12 µM |
| CC(C)C[C@H](NC(=O)CCCCCCCCCCCCCCC(=O)N[C@@H](CC(N)=O)C(=O)N[C@@H](Cc1ccccc1)C(=O)O)C(=O)N[C@@H](CC(C)C)C(=O)N[C@@H](Cc1ccccc1)C(N)=O | HPLC | 0.87 µM |
| COc1ccc(CN2CCN(C[C@@H](O)[C@H](Cc3ccccc3)NC(=O)[C@@H](NC(=O)OCc3csc(C)n3)C(C)C)[C@H](C(=O)NC(C)(C)C)C2)cc1OC | substrate cleavage | ~0.0005 µM |
| CC(C)[C@H](NC(=O)[C@@H](NC(=O)CCCCCCCCCCCCCCC(=O)N[C@@H](CC(N)=O)C(=O)N[C@@H](Cc1ccccc1)C(=O)O)C(C)O)C(=O)N[C@@H](Cc1ccccc1)C(N)=O |  | 2.9 µM |
| CC(C)(C)NC(=O)[C@H]1N(C(=O)[C@@H](O)[C@H](Cc2ccccc2)NC(=O)[C@H](CC(N)=O)NC(=O)COc2cccc3cnccc23)CSC1(C)C |  | <0.05 µM |
| CC(O)[C@H](NC(=O)CCCCCCCCCCCCCCC(=O)N[C@@H](CS(C)(=O)=O)C(=O)N[C@@H](Cc1ccccc1)C(=O)O)C(=O)N[C@@H](CC1CCCCC1)C(=O)N[C@@H](Cc1ccccc1)C(N)=O | HPLC | 0.84 µM |
| CC1(C)CC[C@]2(C(=O)O)CC[C@]3(C)C(=CCC4[C@@]5(C)CC/C(=N\OC(=O)CCCCC(=O)O)C(C)(C)C5CC[C@]43C)C2C1 | HPLC | 5.5 µM |
| CC(=O)N[C@@H](Cc1c[nH]c2ccccc12)C(=O)N[C@H](C(=O)N[C@@H](CC(C)C)[C@@H](O)CC(=O)N[C@@H](CC(C)C)C(=O)N[C@@H](Cc1ccccc1)C(N)=O)C(C)C | fluorescence | 0.02 µM |
| CC[C@@H](C)[C@H](NC(=O)[C@@H]1CCCN1C(=O)[C@@H](O)[C@H](Cc1ccccc1)NC(=O)[C@H](CC(N)=O)NC(=O)OC(C)(C)C)C(=O)NCC1CCCCC1 |  | ~5 µM |
| COC(=O)C[C@H](O)C(CC(C)C)NC(=O)[C@H](C)NC(=O)CC(O)C(CC1CCCCC1)NC(=O)[C@@H](NC(=O)[C@H](Cc1ccc(O)cc1)NC(=O)OCc1ccccc1)C(C)C | fluorescence | 0.6 µM |
| CC(C)C[C@H](NC(=O)[C@@H]1CCCN1C(=O)CCCCCCCCCCCCCCC(=O)N[C@@H](CC(N)=O)C(=O)N[C@@H](Cc1ccccc1)C(=O)O)C(=O)N[C@@H](Cc1ccccc1)C(N)=O |  | 5.5 µM |
| CC(C)C[C@H](NC(=O)[C@H](C)NC(=O)C[C@H](O)[C@H](CC(C)C)NC(=O)[C@@H](NC(=O)[C@H](Cc1ccc(O)cc1)NC(=O)OCc1ccccc1)C(C)C)[C@@H](O)CC(N)=O | fluorescence | 0.3 µM |
| CC(C)C[C@H](NC(=O)[C@@H](NC(=O)CCCCCCCCCCCCCCC(=O)N[C@@H](CS(C)(=O)=O)C(=O)N[C@@H](Cc1ccccc1)C(=O)O)C(C)O)C(=O)N[C@@H](Cc1ccccc1)C(N)=O | HPLC | 2.9 µM |
| C#CC[C@H](NC(=O)COc1cccc2ccccc12)C(=O)N[C@@H](Cc1ccccc1)[C@H](O)C(=O)N1CSC[C@H]1C(=O)NC(C)(C)C |  | <0.05 µM |
| COC(=O)C[C@H](O)[C@H](CC(C)C)NC(=O)[C@H](C)NC(=O)C[C@H](O)[C@H](CC(C)C)NC(=O)[C@@H](NC(=O)[C@H](Cc1c[nH]c2ccccc12)NC(=O)OCc1ccccc1)C(C)C | fluorescence | 0.1 µM |
| CC(C)[C@H](N)C(=O)N[C@H](C(=O)N[C@@H](Cc1ccccc1)[C@@H](O)C(=O)N(CC(=O)N[C@H](C(=O)N[C@H](C(N)=O)C(C)C)C(C)C)Cc1ccccc1)C(C)C |  | <1000 µM |
| CC(C)CN(C[C@@H](O)[C@H](Cc1ccccc1)NC(=O)[C@@H](NC(=O)N(C)Cc1csc(C(C)C)n1)C(C)C)C(=O)NC(C)(C)C | substrate cleavage | <1 µM |
| CC(C)(C)NC(=O)[C@@H]1C[C@@H](OCc2ccccc2)CN1C(=O)[C@@H](O)[C@H](Cc1ccccc1)NC(=O)[C@H](CC(N)=O)NC(=O)OCc1ccccc1 |  | <5 µM |
| CC(=O)O[C@H]1CC[C@]2(C)[C@H]3CC=C4[C@@H]5CC(C)(C)CC[C@]5(C(=O)O)CC[C@@]4(C)[C@]3(C)CC[C@H]2C1(C)C | HPLC | 9 µM |
| CSC(C)(C)[C@H](NC(=O)COc1cccc2ccccc12)C(=O)N[C@@H](Cc1ccccc1)[C@H](O)C(=O)N1CSC[C@H]1C(=O)NC(C)(C)C |  | <0.05 µM |
| C[C@H]1[C@H](C)CC[C@]2(C(=O)O)CC[C@]3(C)C(=CC[C@@H]4[C@@]5(C)CC[C@H](OC(=O)CCC(=O)O)C(C)(C)[C@@H]5CC[C@]43C)[C@H]12 | HPLC | 6 µM |
| CSCC[C@H](NC(=O)CCCCCCCCCCCCCCC(=O)N[C@@H](Cc1ccc(N)cc1)C(=O)N[C@@H](Cc1ccccc1)C(=O)O)C(=O)N[C@@H](CC(C)C)C(=O)N[C@@H](Cc1ccccc1)C(N)=O | HPLC | 0.53 µM |
| CC1(C)CC2C3=CCC4[C@@]5(C)CC[C@H](OC(=O)CCCCC(=O)O)C(C)(C)C5CC[C@@]4(C)[C@]3(C)CC[C@@]2(C)[C@H](OC(=O)CCCCC(=O)O)C1 | HPLC | 2.3 µM |
| COc1ccc(CN2CCN(C[C@@H](O)[C@H](Cc3ccccc3)NC(=O)[C@@H](NC(=O)OCc3cnc(C)s3)C(C)C)[C@H](C(=O)NC(C)(C)C)C2)cc1OC | substrate cleavage | <1 µM |
| CC(C)C[C@H](NC(=O)CCCCCCCCCCCCCCC(=O)N[C@@H](Cc1ccc(N)cc1)C(=O)N[C@@H](Cc1ccccc1)C(=O)O)C(=O)N[C@@H](CC(C)C)C(=O)N[C@@H](Cc1ccccc1)C(N)=O | HPLC | 0.33 µM |
| CC1(C)CC[C@]2(C(=O)O)CC[C@]3(C)C(=CCC4[C@@]5(C)CC[C@@H](NC(=O)CCCCC(=O)O)C(C)(C)C5CC[C@]43C)C2C1 | HPLC | 2.1 µM |

3 of the rows above, restated:

{"compound": "CC(C)[C@H](N)C(=O)N[C@H](C(=O)N[C@@H](Cc1ccccc1)[C@@H](O)C(=O)N(CC(=O)N[C@H](C(=O)N[C@H](C(N)=O)C(C)C)C(C)C)Cc1ccccc1)C(C)C", "result": "<1000 µM"}
{"compound": "CC(C)C[C@H](NC(=O)[C@@H]1CCCN1C(=O)CCCCCCCCCCCCCCC(=O)N[C@@H](CC(N)=O)C(=O)N[C@@H](Cc1ccccc1)C(=O)O)C(=O)N[C@@H](Cc1ccccc1)C(N)=O", "result": "5.5 µM"}
{"compound": "CC(C)CN(C[C@@H](O)[C@H](Cc1ccccc1)NC(=O)[C@@H](NC(=O)N(C)Cc1csc(C(C)C)n1)C(C)C)C(=O)NC(C)(C)C", "read by": "substrate cleavage", "result": "<1 µM"}